Data: patent publication US20040132121A1, “Method of identifying antibacterial compounds” (priority 2000, published 2004)
“And” between values parts separate entries of the source, which are not always exact repeats. Identical values can stand only once.

T1: Escherichia coli β subunit of DNA Polymerase III (β protein) (Escherichia coli), P0A988
T1 chain: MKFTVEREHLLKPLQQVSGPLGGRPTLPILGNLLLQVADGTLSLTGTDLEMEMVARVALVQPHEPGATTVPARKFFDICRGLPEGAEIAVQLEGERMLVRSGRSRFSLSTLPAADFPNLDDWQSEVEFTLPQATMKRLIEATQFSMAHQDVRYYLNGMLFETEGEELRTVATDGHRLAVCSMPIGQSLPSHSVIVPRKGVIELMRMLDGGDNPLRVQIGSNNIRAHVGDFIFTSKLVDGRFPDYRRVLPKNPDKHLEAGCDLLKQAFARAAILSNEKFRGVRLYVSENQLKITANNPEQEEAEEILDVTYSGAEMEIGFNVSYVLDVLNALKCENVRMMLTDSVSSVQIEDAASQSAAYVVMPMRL


Target: T1, Escherichia coli β subunit of DNA …
Experiment: not given

Binder | Kd [µM] | IC50
IGQLDLFGV (modifications not checked) [biotinylated peptide 14] | 0.778 | 
IGQLDMFGV (modifications not checked) [pep1 …] |  | 0.92 µM and 1.01 µM
IGQLSLFGV (modifications not checked) [pep13 …] |  | 0.44 µM and 0.55 µM
IGQLSLFGV (modifications not checked) [biotinylated peptide 13] | 0.8 | 
IGQLDMFGV (modifications not checked) [biotinylated peptide 1] | 0.558 | 
IGQLDLFGV (modifications not checked) [pep14 …] |  | 0.4 µM and 0.5 µM

Target: T1, Escherichia coli β subunit of DNA …
Experiment: α:β assay: inhibition of β binding to plate-coated α

Binder | IC50
IGQAMSLFGV (modifications not checked) [peptide 110a … (delta motif)] | 27 µM
IGQASMFGV (modifications not checked) [pep2 …] | 860 µg/mL

Target: T1, Escherichia coli β subunit of DNA …
Experiment: not given
Remark: another data set of the same source

Binder | IC50
IGQLNLFGV (modifications not checked) [peptide 110d … (UmuC2 motif)] | 7.8 µM and 11.5 µM
IGQLGLFGV (modifications not checked) [peptide 110f … (PolB2 motif)] | 17.5 µM and 9.5 µM
IGQLSLPLGV (modifications not checked) [peptide 110c … (DnaA2 motif)] | 3.4 µM and 3.3 µM
IGQLSLFGV (modifications not checked) [pep13 …] | 4.9 µM and 5.9 µM
IGQLVLGLGV (modifications not checked) [peptide 110b … (DinB1 motif)] | 9.3 µM and 6.8 µM
IGQMSLLGV (modifications not checked) [peptide 110e … (MutS1 motif)] | 9.7 µM and 7 µM
